Measured values from several laboratories, pooled; numbers as filed in NIAID ChemDB.

Shared fields: whole-cell or culture tests; species: HIV-1

ECn: concentration that inhibits the pathogen or its effect by n%. Blank or dashed fields: not listed here. Conditions beyond the fields shown may differ between rows.

compound | mutations | read-out | method | strain or isolate | cell line | result
Nc1ccn([C@H]2CC[C@@H](CO)O2)c(=O)n1 |  | EC50 | XTT | MN | MT-4 | 0.12 µg/mL
CC(C)CN(C[C@@H](O)[C@H](Cc1ccccc1)NC(=O)O[C@H]1CO[C@H]2OCC[C@H]21)S(=O)(=O)c1ccc2nc(N(C)CCCN(C)C)sc2c1 |  | EC50 | cytopathic effect / MTT | R13080 | MT-4 | 0.955 µM
CN[C@@H]1[C@H](O[C@@H]2OC[C@@H](O)[C@H](O)[C@H]2O)[C@@H](O)[C@H](O[C@H]2c3cc(C)c(C(=O)N[C@H](C)C(=O)O)c(O)c3-c3c(cc4c(c3O)C(=O)c3cc(OC)cc(O)c3C4=O)[C@@H]2O)O[C@@H]1C |  | EC50 | syncytia | IIIB | CEM | 5.2 µM
CC(C)CN(C[C@@H](O)[C@H](Cc1ccccc1)NC(=O)O[C@H]1CCOC1)S(=O)(=O)c1ccc2nc(NCCN(C)C)sc2c1 |  | EC50 | cytopathic effect / MTT | R13025 | MT-4 | 0.302 µM
COC(=O)[C@H](Cc1ccccc1)NP(=O)(OC[C@@H]1OC[C@H](n2cc(C)c(=O)[nH]c2=O)O1)Oc1ccccc1 | RT-M184V | EC50 | RT activity | LAI | PBMC | 1.9 µM
Cc1cccc(C)c1OCC(=O)N[C@@H](Cc1ccccc1)[C@H](O)CN(CC(C)C)S(=O)(=O)c1ccc2nc(NC(=O)c3ccccn3)sc2c1 |  | EC50 | cytopathic effect / MTT | IIIB | MT-4 | 0.01 µM
COC(=O)[C@H](C)NP(=O)(OC[C@@H]1OC[C@H](n2cc(C)c(=O)[nH]c2=O)O1)Oc1cccc2ccccc12 | RT-M184V | EC50 | RT activity | LAI | PBMC | 0.14 µM
C[C@]1(CO)O[C@@H](n2cnc3c(N)ncnc32)C[C@@H]1O | Q151M (delta)Env | EC50 | luciferase |  | HOS | 0.111 µM
CC(=O)N(CCN1CCCC1)c1nc2ccc(S(=O)(=O)N(CC(C)C)C[C@@H](O)[C@H](Cc3ccccc3)NC(=O)O[C@H]3CO[C@H]4OCC[C@H]43)cc2s1 |  | EC50 | cytopathic effect / MTT | R13080 | MT-4 | 0.0269 µM
CCCc1cc(=O)oc2c3c(c4c(c12)OC(C)(C)CC4)O[C@@H](C)[C@H](C)[C@@H]3O | RT-D67N K70R Y181C T215Y K219Q | EC50 | XTT | NL4-3(RT-4XAZT+Y181C) | CEM + CEM-SS | <0.06 µM
CCCCCCCCCCCCCCCCCCOCCOP(=O)(O)OC[C@@H]1OC[C@H](n2cc(C)c(=O)[nH]c2=O)O1 | RT-M184V | EC50 | RT activity | LAI | PBMC | 0.3 µM
CNC(=O)c1cc(F)ccc1CNC(=O)c1nc(N2CCCCS2(=O)=O)c2cccnc2c1O |  | EC50 | p24 |  | MT-4 | <5 µM
COC(=O)[C@H](C)NP(=O)(OC[C@@H]1OC[C@H](n2cc(C)c(=O)[nH]c2=O)O1)Oc1ccc(F)cc1 | RT-M184V | EC50 | RT activity | LAI | PBMC | 1.7 µM
Cc1cc(C)cc(S(=O)(=O)c2c(C(N)=O)[nH]c3ccc(Cl)cc23)c1 |  | EC50 | p24 |  | MT-4 | <0.005 µM
Cc1ccc(C)c(C(C)S(=O)(=O)c2c(C)ccc[n+]2[O-])c1 |  | EC50 | cytopathic effect | IIIB | CEM | 0.1 µg/mL
CC(C)CN(C[C@@H](O)[C@H](Cc1ccccc1)NC(=O)OCc1cncs1)S(=O)(=O)c1ccc2nc(N(C)C(=O)CN(C)C)sc2c1 |  | EC50 | cytopathic effect / MTT | IIIB | MT-4 | 0.0041 µM
CCCCCCCCCCCCCCCCOCCCOP(=O)(O)OC[C@@H]1OC[C@H](n2cc(C)c(=O)[nH]c2=O)O1 | RT-M184V | EC50 | RT activity | LAI | PBMC | 2 µM
Cc1ccc(S(=O)(=O)c2c(C(N)=O)[nH]c3ccc(Cl)cc23)cc1 |  | EC50 | p24 | IIIB | C8166 | <0.01 µM
CN1N=C(N)c2cn([C@@H]3O[C@H](COP(=O)(O)O)[C@@H](O)[C@H]3O)c3ncnc1c23 |  | EC50 | syncytia | G-910 | CEM + CEM-SS | 0.058 µM
Cc1ccc(S(=O)(=O)c2c(C(N)=O)[nH]c3ccc(Cl)cc23)c(C)c1 |  | EC50 | p24 | IIIB | C8166 | <0.01 µM
CNC(=O)c1cc(F)ccc1CNC(=O)c1nc(N2CCCN(C)S2(=O)=O)c2cccnc2c1O |  | EC50 | p24 |  | MT-4 | <5 µM
CC(=O)N(CCCN(C)C)c1nc2ccc(S(=O)(=O)N(CC(C)C)C[C@@H](O)[C@H](Cc3ccccc3)NC(=O)O[C@H]3CO[C@H]4OCC[C@H]43)cc2s1 |  | EC50 | cytopathic effect / MTT | LAI | MT-4 | <0.05 µM
Cc1cccc(S(=O)(=O)c2c(C(N)=O)[nH]c3ccc(Cl)cc23)c1 |  | EC50 | p24 | IIIB | C8166 | <0.005 µM
Cc1cc(C)cc(S(=O)(=O)c2c(C(N)=O)[nH]c3c(Cl)cc(Cl)cc23)c1 |  | EC90 | cytopathic effect / MTT | IIIB | MT-4 | 1.2 µM
N#Cc1cc2c3c(ccc2n(-c2ccc([N+](=O)[O-])cc2)c1=O)OCO3 |  | EC50 | GFP / reporter gene | IIIB | MT-4 | 1.68 µM
Cc1cn([C@H]2CO[C@@H](COP(=O)(N[C@@H](C)C(=O)OCc3ccccc3)Oc3ccccc3Cl)O2)c(=O)[nH]c1=O | RT-M184V | EC90 | RT activity | LAI | PBMC | 4.7 µM
Cc1cc(C)cc(S(=O)(=O)c2c(C(=O)/C=C/C(N)=O)[nH]c3ccc(Cl)cc23)c1 | RT-K103N Y181C | EC50 | cytopathic effect / MTT |  | MT-4 | >100 µM
CCCCCCCCCCCCCCCCOCCCOP(=O)(N[C@H](C(=O)OC)C(C)C)OC[C@@H]1OC[C@H](n2cc(C)c(=O)[nH]c2=O)O1 | RT-M184V | EC90 | RT activity | LAI | PBMC | 13.6 µM
CC(C)CN(C[C@@H](O)[C@H](Cc1ccccc1)NC(=O)OCc1cncs1)S(=O)(=O)c1ccc2nc(N(C)C(=O)CN3CCN(C)CC3)sc2c1 |  | EC50 | cytopathic effect / MTT | R13080 | MT-4 | 0.1549 µM
Cc1ccc(C(C)S(=O)(=O)c2c(C)ccc[n+]2[O-])c(C)c1 |  | EC50 | cytopathic effect | IIIB | CEM | 3.4 µg/mL
N#Cc1cc2ccc(OC[C@@H]3CCCN3)cc2n(-c2ccc([N+](=O)[O-])cc2)c1=O |  | EC50 | GFP / reporter gene | IIIB | MT-4 | 2.82 µM
COC(=O)[C@H](C)NP(=O)(OC[C@@H]1OC[C@H](n2cc(C)c(=O)[nH]c2=O)O1)Oc1ccc(Br)cc1 | RT-M184V | EC50 | RT activity | LAI | PBMC | 0.15 µM
CN(c1nc(C(=O)NCc2ccc(F)cc2C(N)=O)c(O)c2ncccc12)S(C)(=O)=O |  | EC50 | p24 |  | MT-4 | <5 µM
Cc1ccc(C)c(CS(=O)(=O)c2cccc[n+]2[O-])c1 |  | EC50 | cytopathic effect | MN | CEM | 10 µg/mL
CC(C)CN(C[C@@H](O)[C@H](Cc1ccccc1)NC(=O)OCc1cncs1)S(=O)(=O)c1ccc2nc(NC(=O)CN3CCN(C)CC3)sc2c1 |  | EC50 | cytopathic effect / MTT | R13025 | MT-4 | 0.0054 µM
CCNC(=O)c1cc(F)ccc1CNC(=O)c1nc(N2CCCCS2(=O)=O)c2cccnc2c1O |  | EC95 | p24 |  | MT-4 | <5 µM
N#Cc1c(N)c2cc(Br)ccc2n(-c2ccc([N+](=O)[O-])cc2)c1=O |  | EC50 | GFP / reporter gene | IIIB | MT-4 | >100 µM
Cc1cc(C)c(CS(=O)c2cccc[n+]2[O-])c(C)c1 |  | EC50 | cytopathic effect | IIIB | CEM | 2.4 µg/mL